Compound potency records, mixed from different reports. Data source: NIAID ChemDB in PubChem.

All rows: whole-cell or culture tests; agent: Candida albicans; measure: inhibition

Conditions beyond the fields shown may differ between rows. Percent inhibition refers to the dose given; in toxicity tests it is the harm to the cells. Blank or dashed fields: not listed here.

| structure | strain or isolate | dose | mutations | method | value |
|---|---|---|---|---|---|
| COc1ccccc1/C=N/c1n[nH]c(N)n1 |  | 200 µg/mL |  | agar diffusion / agar | 48% |
| O=C(Cn1ccnc1)c1ccc(F)cc1F | Fluconazole-resistant | 80 µg/mL |  | broth dilution | 27% |
| CCC(c1ccc(Cl)cc1)C(O)c1ccc(OC)cc1 | 28 strains | 256 µg/mL |  |  | 0% |
| CC(C)(O)c1cn(-c2ccccc2)nn1 | URM 3716 | 2048 µg/mL |  | broth dilution | 0% |
| COc1ccc(CC(c2ccc(OC)cc2)n2cncn2)cc1 | 28 strains | 256 µg/mL |  |  | 86% |
| Cc1c(C(=O)N2CCN(C)CC2)cc(-c2ccc([N+](=O)[O-])cc2)n1Cc1ccccc1 | 20 strains | 200 µg/mL |  |  | 0% |
| CC(C)(O)c1cn(-c2ccc3ccccc3c2)nn1 | URM 4124 | 2048 µg/mL |  | broth dilution | 0% |
| Nc1nc(/N=C/c2ccc[n-]2)n[nH]1.Nc1nc(/N=C/c2ccc[n-]2)n[nH]1.[O]=[V+2] |  | 200 µg/mL |  | agar diffusion / agar | 77% |
| CCCCCCCCn1c(-c2ccc([N+](=O)[O-])cc2)cc(C(=O)N2CCN(C)CC2)c1C | 20 strains | 200 µg/mL |  |  | 0% |
| Cc1ccc(-n2cc(C(C)(C)O)nn2)cc1C | URM 4388 | 2048 µg/mL |  | broth dilution | 0% |
| C[C@H]1[C@H](O)[C@@H](C)/C=C/C=C/C=C/C=C/C=C/C=C/C=C/[C@H](O[C@@H]2O[C@H](C)[C@@H](O)[C@H](N)[C@@H]2O)C[C@@H]2O[C@](O)(C[C@@H](O)C[C@@H](O)CC[C@H](O)[C@@H](O)C[C@@H](O)CC(=O)O[C@H]1C)C[C@H](O)[C@H]2C(=O)O | sap10 | 1 µg/mL |  | broth dilution | 100% |
| CCCCCCCCn1c(-c2ccc([N+](=O)[O-])cc2)cc(C(=O)N(CCO)CCO)c1C | 20 strains | 200 µg/mL |  |  | 0% |
| CCC(c1ccc(OC)cc1)C(c1ccc(OC)cc1)n1cnnc1 | 28 strains | 256 µg/mL |  |  | 65% |
| Nc1nc(/N=C/c2ccccn2)n[nH]1 |  | 200 µg/mL |  | agar diffusion / agar | 52% |
| CCC(c1ccc(OC)cc1)C(O)c1ccc(OC)cc1 | 28 strains | 256 µg/mL |  |  | 7% |
| CC1(C)O[C@H]2[C@H](O)[C@@H](N=[N+]=[N-])C=C(c3ccc(C=O)cc3)[C@H]2O1 | ATCC 10231 | 125 µg/mL |  | broth dilution / turbidity | 100% |
| C[C@H]1[C@H](O)[C@@H](C)/C=C/C=C/C=C/C=C/C=C/C=C/C=C/[C@H](O[C@@H]2O[C@H](C)[C@@H](O)[C@H](N)[C@@H]2O)C[C@@H]2O[C@](O)(C[C@@H](O)C[C@@H](O)CC[C@H](O)[C@@H](O)C[C@@H](O)CC(=O)O[C@H]1C)C[C@H](O)[C@H]2C(=O)O | ATCC 90028 | 1 µg/mL | cph1/efg1 (EFG1) | broth dilution | 100% |
| Cc1cc(C=Nc2ccc(N=Cc3cc(C)cc(/C=N/Nc4nc5ccccc5s4)c3O)cc2)c(O)c(/C=C/Nc2nc3ccccc3s2)c1 |  | 100 µg/mL |  | turbidity | 29.73% |
| NCCCC[C@H](NC(=O)[C@H](Cc1c[nH]c2ccccc12)NC(=O)[C@H](CCCCN)NC(=O)[C@@H](N)CCCCN)C(=O)O | ATCC 10231 | 50 µM |  |  | 0% |
| COc1ccc(C(O)Cn2ccnc2)cc1 | Fluconazole-resistant | 100 µg/mL |  | broth dilution | 74% |
| Nc1nc(/N=C/c2ccc[nH]2)n[nH]1 |  | 200 µg/mL |  | agar diffusion / agar | 63% |
| CC[C@H](C)[C@H](NC(=O)[C@H](Cc1c[nH]c2ccccc12)NC(=O)[C@H](Cc1ccc(O)cc1)NC(=O)[C@@H](N)CO)C(=O)N[C@@H](CCC(=O)O)C(=O)O | NBRC 1392 | 5 µM |  | colony count | 17.5% |
| Cc1c(C(=O)N(CCO)CCO)cc(-c2ccc([N+](=O)[O-])cc2)n1Cc1ccccc1 | 20 strains | 200 µg/mL |  |  | 0% |
| CC(C)(C)OC(=O)N1CCC(n2cc(C#N)nn2)CC1 | NCIM3471 | 200 µg/mL |  | agar | 0% |
| OC(Cn1cncn1)c1ccc(F)cc1F | Fluconazole-resistant | 100 µg/mL |  | broth dilution | 44% |
| Nc1nc(/N=C/c2c(O)ccc3ccccc23)n[nH]1 |  | 200 µg/mL |  | agar diffusion / agar | 48% |

A second listing of 2 rows from above:

structure | strain or isolate | dose | mutations | method | value
C[C@H]1[C@H](O)[C@@H](C)/C=C/C=C/C=C/C=C/C=C/C=C/C=C/[C@H](O[C@@H]2O[C@H](C)[C@@H](O)[C@H](N)[C@@H]2O)C[C@@H]2O[C@](O)(C[C@@H](O)C[C@@H](O)CC[C@H](O)[C@@H](O)C[C@@H](O)CC(=O)O[C@H]1C)C[C@H](O)[C@H]2C(=O)O | sap10 | 1 µg/mL |  | broth dilution | 100%
CCC(c1ccc(OC)cc1)C(O)c1ccc(OC)cc1 | 28 strains | 256 µg/mL |  |  | 7%